Pooled drug test results. Numbers come from NIAID ChemDB, via PubChem.

Shared fields: cytotoxicity tests; cells: HepG2 cells; endpoint: CC50

CCn: concentration that lowers growth or viability of the cells by n%.

{"structure": "COc1ccc(CNCCCNc2ccnc3cc(Cl)ccc23)cc1", "method": "MTT", "value": "4.808 µM"}
{"structure": "O=C(Oc1cc(Br)ccc1C(=O)Nc1ccc(C(F)(F)F)cc1)c1ccccc1", "method": "tetrazolium", "value": "2.34 µM"}
{"structure": "Cc1ccc(C2Nc3ccccc3C(=O)N2CCCCN2CCOCC2)cc1", "method": "luminescence", "value": ">30 µM"}
{"structure": "O=C(Oc1cc(Cl)ccc1C(=O)Nc1ccc(Cl)c(Cl)c1)c1ccccc1", "method": "tetrazolium", "value": "2.54 µM"}
{"structure": "CCN(CC)CCN1C(=O)c2ccccc2NC1c1ccc2c(c1)OCO2", "method": "luminescence", "value": ">30 µM"}
{"structure": "Clc1ccc2c(NCCNCc3ccc(Br)cc3)ccnc2c1", "method": "MTT", "value": "6.583 µM"}
{"structure": "CCCCN1C(=O)c2ccccc2NC1c1ccc(Cl)cc1", "method": "luminescence", "value": ">30 µM"}
{"structure": "CC(C)(C)c1ccc(CNCCNc2ccnc3cc(Cl)ccc23)cc1", "method": "MTT", "value": "10.4 µM"}
{"structure": "COc1cc(C)cc(/C=N/NC(=O)Cc2cccs2)c1O", "method": "MTT", "value": "1020 µM"}
{"structure": "O=C(Nc1ccc(Cl)c(Cl)c1)c1cc(Cl)ccc1O", "method": "tetrazolium", "value": "0.84 µM"}
{"structure": "O=C(Cc1cccs1)N/N=C/c1ccc(O)c(O)c1", "method": "MTT", "value": "1300 µM"}
{"structure": "Clc1ccc2c(NCCCNCc3cccnc3)ccnc2c1", "method": "MTT", "value": "23.3 µM"}
{"structure": "O=C(Oc1ccc(Cl)cc1C(=O)Nc1ccc(C(F)(F)F)cc1)c1cnccn1", "method": "tetrazolium", "value": "3.68 µM"}
{"structure": "CCN(CC)CCN1C(=O)c2ccccc2NC1c1ccc(C)cc1", "method": "luminescence", "value": ">30 µM"}
{"structure": "Fc1ccc(CNCCNc2ccnc3cc(Cl)ccc23)cc1", "method": "MTT", "value": "16 µM"}

The first 2 rows once more:

structure | method | value
COc1ccc(CNCCCNc2ccnc3cc(Cl)ccc23)cc1 | MTT | 4.808 µM
O=C(Oc1cc(Br)ccc1C(=O)Nc1ccc(C(F)(F)F)cc1)c1ccccc1 | tetrazolium | 2.34 µM

Neighbouring rows are from separate reports.